Compound potency records, mixed from different reports. Data source: NIAID ChemDB in PubChem.

Common to all: target-level tests; species: HIV-1; target: Reverse transcriptase

Neighbouring rows are from separate reports. ICn: concentration for n% inhibition. a–b is a range or a potency band. Blank or dashed fields: not listed here.

| SMILES | mutations | measure | read by | strain | result |
|---|---|---|---|---|---|
| O=C1c2cccnc2C(=O)N1CCNC(=S)Nc1ccc(Br)cn1 | RT-V106A | Ki | nucleotide incorporation |  | 0.1 µM |
| COc1ccc(Sc2nc(Cc3c(Cl)cccc3Cl)c(C)c(=O)[nH]2)cc1 | RT-K103N | IC50 |  |  | >400 µM |
| Nc1nc2c(ncn2[C@H]2C=C[C@@H](COP([O-])(=S)OP(=O)(O)C(F)(F)P(=O)(O)O)C2)c(=O)[nH]1 |  | IC50 | fluorescence |  | >10 µM |
| CCN1c2ncc(CSc3ccccc3)cc2C(=O)N(C)c2ccc(Cl)nc21 |  | IC50 | nucleotide incorporation / radiometric | WT | <1 µM |
| CCC1(c2ccc(Cn3ccsc3=N)cc2)Oc2ccccc2-n2cccc2C1=O | RT-Y181I | IC50 | nucleotide incorporation / radiometric |  | >10 µM |
| CCN1c2ncc(CCOc3ccc(CC(C)C(=O)O)c4ccccc34)cc2C(=O)Nc2c(C)cc(Cl)nc21 | RT-Y188L | IC50 | nucleotide incorporation / radiometric |  | >1 µM |
| C[C@@H](NC(=S)Nc1ccc(Br)cn1)c1cccc2ccccc12 |  | Ki |  |  | 0.01 µM |
| CC(C)c1ccccc1-n1nnnc1SCC(=O)Nc1ccccc1[N+](=O)[O-] |  | IC50 | nucleotide incorporation / radiometric |  | <2 µM |
| CCN1c2ncc(CCOc3cccc4c3CCCN4C(=O)CC(=O)O)cc2C(=O)N(C)c2cccnc21 |  | IC50 | nucleotide incorporation / radiometric | WT | <0.1 µM |
| CCC1(c2ccc(COc3ccccc3Cl)cc2)Oc2ccccc2-n2cccc2C1=O |  | IC50 | nucleotide incorporation / radiometric | WT | 1 µM |
| Cc1c(Cc2c(F)cccc2F)nc(Sc2ccc(Cl)cc2)[nH]c1=O | Y181I | IC50 |  |  | >400 µM |
| CCC1(c2cccc(N)c2)Oc2ccccc2-n2cccc2C1=O | RT-Y181I | IC50 | nucleotide incorporation / radiometric |  | >10 µM |
| O=C(O)Cn1cnc2c(=O)[nH]c(NC(=O)OCc3ccccc3)nc21 |  | Ki | nucleotide incorporation / radiometric | WT | 4.7 µM |
| Cc1cc(C)c(-n2nnnc2OCC(=O)Nc2ccccc2Cl)c(C)c1 |  | IC50 | nucleotide incorporation / radiometric |  | <2 µM |
| O=C(O)Cn1cnc2c(Oc3ccccc3[N+](=O)[O-])nc(NC(=O)OCc3ccccc3)nc21 | Y188L | Ki | nucleotide incorporation / radiometric | NNRTI-resistant | 35 µM |
| O=C1c2ccccc2C2(c3ccccc3)SCCN12 | RT-Y181C | IC50 | ELISA | IIIB | 44 µM |
| Cc1cc(C)c(-n2nnnc2SCC(=O)Nc2ccccc2C(F)(F)F)c(C)c1 |  | IC50 | nucleotide incorporation / radiometric |  | <2 µM |
| CCN1c2ncc(CCc3ccccc3)cc2C(=O)Nc2c1nc(Cl)c(Br)c2C | RT-Y181C | IC50 | nucleotide incorporation / radiometric |  | <1 µM |
| CCN1c2ncc(CCOc3ccc(/C=C(\C)C(=O)O)c4ccccc34)cc2C(=O)Nc2c(C)cc(F)nc21 | RT-K103N Y181C | IC50 | nucleotide incorporation / radiometric |  | 0.1–1 µM |
| CC(=O)c1cccc(-n2nnnc2SCC(=O)Nc2ccccc2Cl)c1 |  | IC50 | nucleotide incorporation / radiometric |  | <2 µM |
| CCc1c([Se]c2ccccc2)n(COCc2ccccc2)c(=O)[nH]c1=O | RT-L100I | IC50 | RT activity |  | 0.4 µM |
| Cc1cc2c(cc1C)n1cccc1c(=O)n2CCNC(=S)Nc1ccc(Br)cn1 | RT-K103N | Ki | nucleotide incorporation |  | 0.2 µM |
| CCN1c2ncc(CCOc3ccc(/C(C)=C/C(=O)O)c4ccccc34)cc2C(=O)N(C)c2cccnc21 | RT-V106A | IC50 | nucleotide incorporation / radiometric |  | >1 µM |
| Cc1cn([C@H]2C=C[C@@H](COP(=O)(O)OP(=O)(O)OP(=O)(O)O)O2)c(=O)[nH]c1=O |  | Ki | fluorescence |  | 0.0032 µM |
| Cc1cc(C)c(-n2nnnc2SCC(=O)Nc2ccc(S(=O)(=O)Nc3nc(C)c(C)o3)cc2)c(C)c1 |  | IC50 | nucleotide incorporation / radiometric |  | <2 µM |
| Cc1c(Cc2c(Cl)cccc2Cl)nc(Sc2ccc(F)cc2F)[nH]c1=O | RT-K103N | IC50 |  |  | >400 µM |
| Cc1csc(NC(=S)NC[C@@H](C)c2ccccc2)n1 |  | IC50 |  |  | >100 µM |
| CC(C)=CCOc1cc(NC(=S)c2ccoc2C)ccc1Cl | RT-Y181I | IC50 |  |  | 9.5 µM |
| Cc1cc(S(N)(=O)=O)ccc1NC(=O)COc1ccc(Cl)cc1C(=O)c1cc(Cl)cc(C#N)c1 | RT-V106I | IC50 | fluorescence |  | 0.0027 µM |
| CCC1(c2ccc(I)cc2)Oc2ccccc2-n2cccc2C1=O |  | IC50 | nucleotide incorporation / radiometric | WT | 1.2 µM |
| Nc1nc2c(ncn2COCCOP(=O)(O)OP(=O)(O)OP(=O)(O)O)c(=O)[nH]1 |  | Ki | nucleotide incorporation / radiometric |  | >20 µM |
| CCC1(c2cccc(Cl)c2)Oc2ccccc2-n2cccc2C1=O | RT-Y181I | IC50 | nucleotide incorporation / radiometric |  | 0.8 µM |
| Cc1c(Sc2ccccc2)n(COCCO)c(=O)[nH]c1=O |  | IC50 |  |  | <0.5 µM |
| COc1ccc2nc(NC(=S)N[C@H](C)c3ccccc3)sc2c1 |  | IC50 |  |  | >100 µM |
| CCN1c2ncc(COc3ccc(F)cc3)cc2C(=O)N(C)c2ccc(Cl)nc21 | RT-Y181C | IC50 | nucleotide incorporation / radiometric |  | <1 µM |
| COc1ccc2c(c1)N(C(=O)OC(C)C)[C@@H](CSC)C(=S)N2 | RT-Y181C | IC50 | scintillation proximity / radiometric |  | 0.56 µM |
| CCN1c2ncc(CCOc3ccc(C(=O)O)c4ccccc34)cc2C(=O)N(C)c2ccc(Cl)nc21 | RT-Y188L | IC50 | nucleotide incorporation / radiometric |  | 0.1–1 µM |
| O=c1c2cccn2c2cccc(F)c2n1CCNC(=S)Nc1ccc(Br)cn1 |  | Ki | nucleotide incorporation |  | 0.009 µM |
| Cc1cn([C@H]2C[C@H](F)[C@@H](COP([O-])(=S)OP(=O)(O)C(F)(F)P(=O)(O)O)O2)c(=O)[nH]c1=O |  | IC50 | fluorescence |  | >10 µM |
| CCC1(c2ccc(CNc3ccccc3)cc2)Oc2ccccc2-n2cccc2C1=O | RT-Y181I | IC50 | nucleotide incorporation / radiometric |  | >10 µM |
| Cc1cc(C)c(-n2nnnc2SCC(=O)Nc2ccc(F)cc2Br)c(C)c1 |  | IC50 | nucleotide incorporation / radiometric |  | <2 µM |
| CCOc1cccc(C2(CC)Oc3ccccc3-n3cccc3C2=O)c1 | RT-Y188L | IC50 | nucleotide incorporation / radiometric |  | 0.76 µM |
| C[C@@H](CNC(=S)Nc1ccc(Cl)cn1)c1ccccc1 |  | IC50 |  |  | 0.1 µM |
| Cc1cc(C)c(-n2nnnc2SCC(=O)Nc2ccc(Cl)cn2)c(C)c1 |  | IC50 | nucleotide incorporation / radiometric |  | <2 µM |
| COc1ccc(Sc2nc(Cc3c(F)cccc3F)c(C)c(=O)[nH]2)cc1 |  | IC50 |  | WT | >400 µM |
| CCc1c(Sc2ccccc2)n(COCc2ccccc2)c(=O)[nH]c1=O |  | IC50 | RT activity | RT-WT | 0.1 µM |
| Cc1cc(C)cc([C@]23SCCN2C(=O)c2ccccc23)c1 |  | IC50 | ELISA | IIIB | 0.09 µM |
| CCN1c2ncc(CCCc3ccccc3)cc2C(=O)N(C)c2cccnc21 | RT-Y181C | IC50 | nucleotide incorporation / radiometric |  | >1 µM |
| C=C(CC(=O)O)c1ccc(OCCc2cnc3c(c2)C(=O)N(C)c2cccnc2N3CC)c2ccccc12 | RT-Y188L | IC50 | nucleotide incorporation / radiometric |  | >1 µM |
| Cc1ccc(NC(=S)N[C@H](C)c2cccc3ccccc23)nc1 |  | IC50 |  |  | 0.45 µM |
| CCN1c2ncccc2C(=O)N(C)c2ccc(-c3ncc[nH]3)nc21 |  | IC50 | nucleotide incorporation |  | 3.7 µM |
| O=c1c2cccn2c2ccccc2n1CCNC(=S)Nc1ccc(Cl)cn1 | RT-V106A | Ki | nucleotide incorporation |  | 1.6 µM |
| CCN1c2ncc(CCOc3ccncc3)cc2C(=O)N(C)c2cccnc21 |  | IC50 | nucleotide incorporation / radiometric | WT | <1 µM |
| Cc1cccc(NC(=S)NC[C@@H](C)c2ccccc2)n1 |  | IC50 |  |  | >100 µM |
| CCN1c2ncc(COc3ccc4[nH]ccc4c3)cc2C(=O)N(C)c2ccc(Cl)nc21 |  | IC50 | nucleotide incorporation / radiometric | WT | <1 µM |
| CCc1c([Se]c2ccccn2)n(COCc2ccccc2)c(=O)[nH]c1=O | RT-L100I | IC50 | RT activity |  | 0.3 µM |
| Cc1cn([C@H]2CC[C@@H](COP(=O)(O)OP(=O)(O)OP(=O)(O)O)O2)c(=O)[nH]c1=O | RT-E138A | IC50 | nucleotide incorporation / radiometric |  | 0.09 µM |
| Cc1cc(C)c(-n2nnnc2SCC(=O)Nc2cc(C)on2)c(C)c1 |  | IC50 | nucleotide incorporation / radiometric |  | <2 µM |
| C[C@H](CNC(=S)Nc1ccccn1)C1CCCCC1 |  | Ki |  |  | >100 µM |
| CCN1c2ncccc2C(=O)N(C)c2ccc(-c3cccc(O)c3)nc21 | RT-Y181C | IC50 | nucleotide incorporation |  | 0.56 µM |